Measured values from several laboratories, pooled; numbers as filed in NIAID ChemDB.

Shared fields: whole-cell or culture tests; agent: Staphylococcus aureus; read-out: MIC

Rows are shuffled and stem from different studies.

smiles | strain or isolate | result
CC[C@H](NC)C1CCN(c2c(F)cn3c(=O)c(C(=O)O)cc(C4CC4)c3c2C)C1 | 1775 (ciprofloxacin-resistant) | 0.05 µg/mL
CCCCn1sc2cccc(F)c2c1=O | ATCC 6538 | 30 µg/mL
CO[C@H]1/C=C/O[C@@]2(C)Oc3c(C)c(O)c4c(O)c(c(/C=N/N5CCN(C)CC5)c(O)c4c3C2=O)NC(=O)/C(C)=C\C=C\[C@H](C)[C@H](O)[C@@H](C)[C@@H](O)[C@@H](C)[C@H](OC(C)=O)[C@@H]1C | ATCC 25923 | 0.016 µg/mL
Cc1c(N2C[C@@H]3CCCN[C@H]3C2)c(F)cn2c(=O)c(C(=O)O)cc(C3CC3)c12 | CG55 | 0.013 µg/mL
CC(C)c1c(O)ccc2c1C=C[C@H]1C(C)(C)CCC[C@]21CO | Methicillin-resistant | 32 µg/mL
NC(=O)c1cccc(C(F)(F)F)c1SSc1c(C(N)=O)cccc1C(F)(F)F | ATCC 6538 | 50 µg/mL
COC1=C[C@H]2C(C)(C)CCC[C@]2(C)c2ccc(O)c(C(C)C)c21 | Methicillin-resistant | 8 µg/mL
CC(=O)CCN1CCN(c2c(Cl)cc3c(=O)c(C(=O)O)cn(C4CC4)c3c2F)CC1 | 1756 | 0.25 µg/mL
CSCC[C@H](N)C1CCN(c2c(F)cn3c(=O)c(C(=O)O)cc(C4CC4)c3c2C)C1 | NCTC10649 | 0.005 µg/mL
O=C(O)c1cn(C2CC2)c2c(F)c(N3CCNCC3)c(Cl)cc2c1=O | 1756 | 0.25 µg/mL
CCCCn1sc2ccc(F)cc2c1=O | ATCC 6538 | 10 µg/mL
O=C(O)c1cn(C2CC2)c2c(F)c(N3CCN(CCO)CC3)c(Cl)cc2c1=O | 1756 | 0.5 µg/mL
CO[C@H]1/C=C/O[C@@]2(C)Oc3c(C)c(O)c4c(O)c(c5c(c4c3C2=O)NC2(CCN(CC(C)C)CC2)N=5)=NC(=O)/C(C)=C\C=C\[C@H](C)[C@H](O)[C@@H](C)[C@@H](O)[C@@H](C)[C@H](OC(C)=O)[C@@H]1C | ATCC 29213 | 0.0313 µg/mL
O=C(O)c1cn(C2CC2)c2c(F)c(N3CCNC(C4CCCCC4)C3)c(Cl)cc2c1=O | 133 | 0.06 µg/mL
O=c1[nH]sc2c(C(F)(F)F)cccc12 | ATCC 6538 | 30 µg/mL
CCC1CN(c2c(Cl)cc3c(=O)c(C(=O)O)cn(C4CC4)c3c2F)CCN1 | 1756 | 0.25 µg/mL
CC(=O)Oc1ccc2c(c1C(C)C)[C@@H]1O[C@@H]1[C@H]1C(C)(C)CCC[C@]21C | Methicillin-resistant | >32 µg/mL
CC1CN(c2c(Cl)cc3c(=O)c(C(=O)O)cn(C4CC4)c3c2F)CC(C)N1 | 1756 | 0.5 µg/mL
C[C@H]1C[C@H](N)CN1c1nc2c(cc1F)c(=O)c(C(=O)O)cn2-c1ccc(F)cc1F | 1775 (ciprofloxacin-resistant) | 8 µg/mL
CC1CN(c2c(Cl)cc3c(=O)c(C(=O)O)cn(C4CC4)c3c2F)CCN1 | 1756 | 0.5 µg/mL
CC(C)c1c(O)ccc2c1C[C@@H]1OC[C@]3(C)CCC[C@@]2(C)C13 | Methicillin-resistant | >32 µg/mL